Pooled drug test results. Numbers come from NIAID ChemDB, via PubChem.

All rows: growth or infection tests; agent: Influenza A virus; cell line: MDCK; method: plaque count; endpoint: EC50

a–b is a range or a potency band.

{"structure": "Cc1ccc(O)c(C(=O)NCCCN2[C@H](C)CCC[C@@H]2C)c1", "strain or isolate": "H1N1 A/WSN/33 (H1N1)", "value": "0.7 µg/mL"}
{"structure": "CC#Cc1cn([C@@H]2O[C@H](COP(=O)(N[C@H](C(=O)OC)C(C)C)Oc3ccccc3)[C@@H](O)[C@@H]2O)c(=O)[nH]c1=O", "strain or isolate": "H1N1 A/Sweden/3/50", "value": ">100 µM"}
{"structure": "C[C@H](CO)[C@@H](OC(N)=O)[C@@H]1OC(C(=O)O)=C[C@H](N=C(N)N)[C@H]1NC(=O)O", "strain or isolate": "H3N2 AICHI", "value": "0.005 µg/mL"}
{"structure": "CC#Cc1cn([C@@H]2O[C@H](COP(=O)(O)OCCCCCCCCCCCCCCCC)[C@@H](O)[C@@H]2O)c(=O)[nH]c1=O", "strain or isolate": "H1N1 A/Sweden/3/50", "value": ">10 µM"}
{"structure": "CC(C)[C@@H]1CCC2(C)C(N)C1[C@H](C)[C@@H]2C", "value": "67 µM"}
{"structure": "N#Cc1cc(NC(=O)c2ccccc2)c(=O)n2c1[nH]c1ccccc12", "strain or isolate": "Influenza A/Ishikawa/7/82 (H3N2)", "value": "2 µg/mL"}
{"structure": "C[C@@]1(O)CC2CCCC1C2N", "value": ">100 µM"}
{"structure": "Nc1nc2c(ncn2[C@@H]2O[C@H](CO)[C@@H](O)[C@H]2F)c(=O)[nH]1", "strain or isolate": "H1N1 A/Sweden/3/50", "value": "22 µM"}
{"structure": "Cc1ccc(O)c(C(=O)N[C@H]2CCC34CCC3N(Cc3ccccc3)C4C2)c1", "strain or isolate": "H1N1 A/WSN/33 (H1N1)", "value": ">50 µg/mL"}
{"structure": "C[C@H](CO)[C@@H](OC(=O)NCCCCCCN)[C@@H]1OC(C(=O)O)=C[C@H](N=C(N)N)[C@H]1NC(=O)O", "strain or isolate": "H3N2 AICHI", "value": "0.005 µg/mL"}
{"structure": "COc1cc(NCC2(CO)CCC2)nc(N)n1", "strain or isolate": "H1N1 A/PR/8/34", "value": "46–120 µM"}
{"structure": "CC1=C(c2ccccc2)C2CCCC1C2N", "value": ">25 µM"}
{"structure": "C[C@H](CO)[C@@H](OC(=O)NCCSc1ncccn1)[C@@H]1OC(C(=O)O)=C[C@H](N=C(N)N)[C@H]1NC(=O)O", "strain or isolate": "H3N2 AICHI", "value": "0.0001 µg/mL"}
{"structure": "CC12CCCC(CC1)C2N", "value": ">25 µM"}
{"structure": "C[C@@H]1CCC[C@H](C)N1CCCNC(=O)c1cc(Cl)ccc1O", "strain or isolate": "H1N1 A/WSN/33 (H1N1)", "value": "1 µg/mL"}
{"structure": "CC#Cc1cn([C@@H]2O[C@H](COP(=O)(OCC(Cl)(Cl)Cl)Oc3ccccc3)[C@@H](O)[C@@H]2O)c(=O)[nH]c1=O", "strain or isolate": "H1N1 A/Sweden/3/50", "value": ">10 µM"}
{"structure": "C[C@H](CO)[C@@H](OC(=O)N(CCCN)CCCCN)[C@@H]1OC(C(=O)O)=C[C@H](N=C(N)N)[C@H]1NC(=O)O", "strain or isolate": "H3N2 AICHI", "value": "0.018 µg/mL"}
{"structure": "CC#Cc1cn([C@@H]2O[C@H](COP(=O)(OCC)Oc3ccccc3)[C@@H](O)[C@@H]2O)c(=O)[nH]c1=O", "strain or isolate": "H1N1 A/Sweden/3/50", "value": ">100 µM"}
{"structure": "CCC(CC)O[C@@H]1C=C(C(=O)O)C[C@H](N)[C@H]1NC(C)=O", "strain or isolate": "Influenza A H3N2 isolate C32C", "value": "0.075 µg/mL"}
{"structure": "Cc1ccc(O)c(C(=O)NCCN2[C@H](C)CCC[C@@H]2C)c1", "strain or isolate": "H1N1 A/WSN/33 (H1N1)", "value": "1.8 µg/mL"}
{"structure": "N#Cc1cc(C#N)c2[nH]c3ccccc3n2c1=O", "strain or isolate": "A/Bangkok", "value": "70 µg/mL"}
{"structure": "O=C(NCCN1CCC[C@@H]2CCCC[C@H]21)c1cc(Cl)ccc1O", "strain or isolate": "H1N1 A/WSN/33 (H1N1)", "value": "1.4 µg/mL"}
{"structure": "COc1c(Cl)nc(N)nc1NCC1(CO)CC(CCc2ccccc2)C1", "strain or isolate": "H1N1 A/PR/8/34", "value": "0.53–0.8 µM"}
{"structure": "CC(C)C1CC2C(N)C(C1)[C@H](C)[C@@H]2C", "value": "34.3 µM"}
{"structure": "CCOC(=O)c1cc(C#N)c2[nH]c3ccccc3n2c1=O", "strain or isolate": "Influenza A/Ishikawa/7/82 (H3N2)", "value": ">40 µg/mL"}
{"structure": "C[C@H]1C2CCCC(C)(C2N)[C@H]1C", "value": "13.4 µM"}
{"structure": "CCOC(=O)c1cc(NC(=O)c2ccccc2)c(=O)n2c1[nH]c1ccccc12", "strain or isolate": "Influenza A/Ishikawa/7/82 (H3N2)", "value": ">40 µg/mL"}
{"structure": "CC#Cc1cn([C@@H]2O[C@H](COP(=O)(O)OCCCCCCCCCCCC)[C@@H](O)[C@@H]2O)c(=O)[nH]c1=O", "strain or isolate": "H1N1 A/Sweden/3/50", "value": ">100 µM"}
{"structure": "Cc1ccc(O)c(C(=O)N[C@@H]2CCC34CCC3N(C(C)C)C4C2)c1", "strain or isolate": "H1N1 A/WSN/33 (H1N1)", "value": ">50 µg/mL"}
{"structure": "N#CNc1nncs1", "strain or isolate": "A/Russia", "value": "0.37 µg/mL"}
{"structure": "Nc1nc(N)c(N)c(Cl)n1", "strain or isolate": "H1N1 A/PR/8/34", "value": ">630 µM"}
{"structure": "CC#Cc1cn([C@@H]2O[C@H](COP(=O)(N[C@@H](C)C(=O)OC)Oc3ccccc3)[C@@H](O)[C@@H]2O)c(=O)[nH]c1=O", "strain or isolate": "H1N1 A/Sweden/3/50", "value": ">100 µM"}
{"structure": "CC(=O)N[C@H]1[C@H]([C@H](O)[C@H](O)CO)OC(C(=O)O)=C[C@@H]1N=C(N)N", "strain or isolate": "Influenza A/Johannesburg/33/94 (H3N2)", "value": "0.241 µM"}
{"structure": "CC1=C(C)C2C(N)C1CC[C@@H]2C", "value": ">20 µM"}

A second listing of 2 rows from above:

structure | strain or isolate | value
CC#Cc1cn([C@@H]2O[C@H](COP(=O)(O)OCCCCCCCCCCCC)[C@@H](O)[C@@H]2O)c(=O)[nH]c1=O | H1N1 A/Sweden/3/50 | >100 µM
C[C@H](CO)[C@@H](OC(=O)NCCSc1ncccn1)[C@@H]1OC(C(=O)O)=C[C@H](N=C(N)N)[C@H]1NC(=O)O | H3N2 AICHI | 0.0001 µg/mL

ECn: concentration that inhibits the pathogen or its effect by n%. Neighbouring rows are from separate reports.